Pooled drug test results. Numbers come from NIAID ChemDB, via PubChem.

All rows: growth or infection tests; organism: HIV-1

Blank or dashed fields: not listed here. Rows are shuffled and stem from different studies. ECn is the concentration giving n% inhibition of infection, replication or growth.

compound	endpoint	strain	read by	cell line	setting	mutations	result
O=C1N(Cc2ccc(CO)cc2)[C@H](Cc2ccccc2)[C@H](O)[C@@H](O)[C@@H](Cc2ccccc2)N1Cc1ccc(CO)cc1	EC50	Y clinical isolate	p24	PBMC			0.04 µM
Cc1cc(S(N)(=O)=O)ccc1NC(=O)COc1ccc(Cl)cc1C(=O)c1cc(C#N)cc(OC(F)F)c1	EC50			HeLa		WTRVA	0.0009 µM
Cc1ccnc2c1NC(=O)c1cccnc1N2C1CC1	EC50	IIIB	p24 / ELISA	PBMC			0.162 µM
O=S1(c2cccc(Cl)c2)=NC(=S)Nc2ccc(Cl)cc21	EC50	IIIB	cytopathic effect / XTT	MT-2			0.03 µM
Cc1cn([C@H]2C=C[C@@H](CO)O2)c(=O)[nH]c1=O	EC50	Clinical isolate	recombinant virus assay	MT-2		M184V	0.384 µM
CC(C)(C)OC(=O)N[C@@H](Cc1ccccc1)[C@H](O)CNC[C@@H](O)[C@H](Cc1ccccc1)NC(=O)C(C)(O)C(C)(C)C	EC50	A018A	p24	PBMC			0.21 µM
CNC(C)(C)c1nc(C(=O)NCc2ccc(F)cc2)c(O)c(=O)[nH]1	EC50	IIIB	p24	MT-4	10% FBS		<0.25 µM
CCn1nc(Cc2ccc3c(c2)OCO3)cc1C1CCN(C[C@H]2CN([C@@H](C(=O)O)C(C)(C)C)C[C@@H]2c2cccc(F)c2)CC1	EC90	BaL	β-galactosidase	HeLa			<0.00014 µM
c1cc(CN2CCCNCCCNCCNCCC2)ccc1CN1CCCNCCCNCCNCCC1	EC50	RF	cytopathic effect / MTT	MT-4			0.22 µg/mL
CON(C)C(=O)c1cc(C#N)cc(C(=O)c2cc(Cl)ccc2OCC(=O)Nc2ccc(S(N)(=O)=O)cc2C)c1	EC50			HeLa		WTRVA	0.0055 µM
C1CNCCNCCCN(CCCN2CCCNCCNCCCNCC2)CCNC1	EC50	RF	cytopathic effect / MTT	MT-4			1.26 µg/mL
COc1cc(C#N)cc(C(=O)c2cc(Cl)ccc2OCC(=O)Nc2ccc(S(N)(=O)=O)cc2C)c1	EC50			HeLa		Y181C	0.0005 µM
CC(=O)Nc1cccc(C#Cc2cc(C)c(Oc3ccnc(Nc4ccc(C#N)cc4)n3)c(C)c2)c1	EC50	IIIB	MTT	MT-4		L100I	≥0.169 µM
CCn1nc(Cc2cccc(OC)c2)cc1C1CCN(C[C@H]2CN([C@@H](C(=O)O)C(C)(C)C)C[C@@H]2c2cccc(F)c2)CC1	EC90	BaL	β-galactosidase	HeLa	50% human serum		0.033 µM
Cc1cc(C)cc([C@]23SCCN2C(=O)c2ccccc23)c1	EC50	D148/88	p24 / ELISA	PBMC			0.008 µM
Cc1cc(S(N)(=O)=O)ccc1NC(=O)COc1ccc(Cl)cc1C(=O)c1cc(C#N)cc(C(=O)N2CCC2)c1	EC50			HeLa		V106A	>2 µM
C/C=C/CSc1cc(NC(=S)c2ccsc2C)ccc1Cl	EC50	IIIB	cytopathic effect / XTT	CEMx174 + CEM			0.1 µM
CC(C)Nc1cccnc1N1CCN(C(=O)c2cc3cc(NS(C)(=O)=O)ccc3[nH]2)CC1	EC50	IIIB	MTT	MT-4		E138K	0.069 µM
O=C(O)P(=O)(O)O	EC50	8684 CLADE C CLADE C	p24	PBMC			18.6 µM
c1cc(CCN2CCCNCCNCCCNCC2)ccc1CCN1CCCNCCNCCCNCC1	EC50	168.10	cytopathic effect / MTT	SupT1 + Sup-T1			1.2 µg/mL
CC[C@H](C)[C@H](NC(=O)c1ccccc1SSc1ccccc1C(=O)N[C@H](C(=O)O)[C@@H](C)CC)C(=O)O	EC50	BaL	p24 / RT activity	Macrophage			24 µM
Cc1cc(S(N)(=O)=O)ccc1NC(=O)COc1ccc(Cl)cc1C(=O)c1cc(C#N)cc(C(=O)N2CCOCC2)c1	EC50			HeLa		Y181C	0.97 µM
CC[C@@H](C)[C@H](C(=O)O)N1C[C@H](CN2CCC(c3cc(Cc4ccc(C(F)(F)F)cc4)nn3CC)CC2)[C@@H](c2cccc(F)c2)C1	EC90	BaL	β-galactosidase	HeLa			0.0004 µM
c1ccc(-c2cc(CN3CCCNCCNCCCNCC3)ccc2CN2CCCNCCNCCCNCC2)cc1	EC50	NL4-3	cytopathic effect / MTT	MT-4		AMD3100-resistant	12.1 µg/mL
Cc1cn([C@H]2C[C@H](N=[N+]=[N-])[C@@H](CO)O2)c(=O)[nH]c1=O	EC50	RF	cytopathic effect / XTT	CEM + CEM-SS			0.002 µM
C#C[C@]1(CO)O[C@@H](n2cnc3c(N)nc(F)nc32)C[C@@H]1O	EC50	Clinical isolate	fluorescence	MT4-GFP		A400T	0.00077 µM
CCOc1ccc(Cc2cc(C3CCN(C[C@H]4CN([C@@H](C(=O)O)C(C)C)C[C@@H]4c4cccc(F)c4)CC3)n(CC)n2)cc1	EC50	BaL	β-galactosidase	HeLa			<0.0004 µM
c1ncc(CN2CCCNCCNCCCNCC2)cc1CN1CCCNCCNCCCNCC1	EC50	NL4-3	cytopathic effect / MTT	MT-4		AMD3100-resistant	5 µg/mL
O=C1N(Cc2ccccc2)c2cscc2S(=O)(=O)N1Cc1ccccc1	EC50	IIIB	syncytia	CEM			1.8 µM
Cc1cc(OC[C@H]2CNCCO2)ccc1NC(=O)COc1ccc(Cl)cc1C(=O)c1cc(C#N)cc(OC(F)F)c1	EC50			HeLa		V106A	0.0031 µM
Fc1cccc(F)c1C1SCc2nc3ccccc3n21	EC50	UC82-R (RT-Y181C)	cytopathic effect / XTT	CEM + CEM-SS		RT-Y181C	>69 µM
CCn1nc(Cc2ccc(F)cc2F)cc1C1CCN(C[C@H]2CN([C@@H](C(=O)O)C3CCCCC3)C[C@@H]2c2cccc(F)c2)CC1	EC50	BaL	β-galactosidase	HeLa	50% human serum		<0.033 µM
Cc1ccnc2c1NC(=O)c1cccnc1N2C1CC1	EC50	IIIB	cytopathic effect / XTT	AA5			0.7 µM
CCn1nc(Cc2cccc(C#N)c2)cc1C1CCN(C[C@H]2CN([C@@H](C(=O)O)C(C)C)C[C@@H]2c2cccc(F)c2)CC1	EC50	BaL	β-galactosidase	HeLa	50% human serum		<0.1 µM
Cc1cc(C#Cc2cccc(N)c2)cc(C)c1Oc1ccnc(NC2CCN(c3cccc(C(N)=O)c3)CC2)n1	EC50	IIIB	MTT	MT-4		Y181C	0.124 µM
CN1C2CCC1(c1nc(C(=O)NCc3ccc(F)cc3)c(O)c(=O)[nH]1)CC2	EC50	IIIB	p24	MT-4	50% human serum		<0.12 µM
Cc1cc(C#Cc2ccccn2)cc(C)c1Oc1ccnc(Nc2ccc(C#N)cc2)n1	EC50	IIIB	MTT	MT-4		E138K	0.138 µM
N#CCN1C(=O)N(Cc2cccc(F)c2)S(=O)(=O)c2cscc21	EC50		syncytia	CEM		RT-Y181C	28.5 µM
O=S1(c2ccccc2)=NC(=S)Nc2ccccc21	EC50	McK	cytopathic effect / XTT	CEM + CEM-SS			1.68 µM
C#CCN1C(=O)N(Cc2ccccc2)S(=O)(=O)c2cscc21	EC50	MN	syncytia	MT-4			0.3 µM
Cc1cc(S(N)(=O)=O)ccc1NC(=O)COc1ccc(Cl)cc1C(=O)c1cc(C#N)cc(OCF)c1	EC50			HeLa		Y181C	0.0015 µM
Fc1c(F)c(CN2CCCNCCNCCCNCC2)c(F)c(F)c1CN1CCCNCCNCCCNCC1	EC50	NL4-3	cytopathic effect / MTT	MT-4		AMD3100-resistant	0.48 µg/mL
CC[C@@H](C)[C@H](C(=O)O)N1C[C@H](CN2CCC(c3cc(Cc4cccc5ccccc45)nn3CC)CC2)[C@@H](c2cccc(F)c2)C1	EC50	BaL	β-galactosidase	HeLa	50% human serum		<0.033 µM
Clc1cc(CN2CCCNCCNCCCNCC2)c(Cl)cc1CN1CCCNCCNCCCNCC1	EC50	RF	cytopathic effect / MTT	MT-4			0.12 µg/mL
Nc1nc(=O)n([C@@H]2CS[C@H](CO)O2)cc1F	EC50	Clinical isolate	recombinant virus assay	MT-2		M41L/A98G/K103N/M184V/L210W/T215Y	>13.3 µM
CN1CCN(C)C(C)(c2nc(C(=O)NCc3ccc(F)cc3)c(O)c(=O)[nH]2)C1	EC50	IIIB	p24	MT-4	50% human serum		<0.25 µM
Cc1occc1C(=S)Nc1ccc(Cl)c(/C=N/OC(C)(C)C)c1	EC50	WEJO	cytopathic effect / XTT	PBMC			0.2 µM
CN(C)Cc1nc(C(=O)NCc2ccc(F)cc2)c(O)c(=O)[nH]1	EC95	IIIB	p24	MT-4	10% FBS		1 µM
Cc1ccnc2c1NC(=O)c1cccnc1N2C1CC1	EC50	HXB2(181) (RT-Y181C	plaque count	HT4 + HT4 LacZ-1		RT-Y181C	15.1 µM
CCn1nc(Cc2ccc(F)c(F)c2)cc1C1CCN(C[C@H]2CN([C@@H](C(=O)O)C(C)C)C[C@@H]2c2cccc(F)c2)CC1	EC50	BaL	β-galactosidase	HeLa	50% human serum		<0.3 µM
Nc1nc(=O)n([C@@H]2CS[C@H](CO)O2)cc1F	EC50	RTMC(184) (RT D67N K70R M184V T215F K219Q)	plaque count	HT4 + HT4 LacZ-1		RT-D67N K70R M184V T215F K219Q	>500 µM
CN(c1ccccc1)c1nc(C(=O)NCc2ccc(F)cc2)c(O)c(=O)[nH]1	EC50	IIIB	p24	MT-4	10% FBS		<2.5 µM
Cc1cn([C@H]2C=C[C@@H](CO)O2)c(=O)[nH]c1=O	EC90	RF	cytopathic effect	C8166			1 µg/mL
CCN1C(=O)N(Cc2cccc(Cl)c2)S(=O)(=O)c2cscc21	EC50		syncytia	CEM		RT-V106A	33.6 µM
CC[C@H](C)[C@H](C(=O)O)N1C[C@H](CN2CCC(c3cc(Cc4ccc(Oc5ccccc5)cc4)nn3CC)CC2)[C@@H](c2cccc(F)c2)C1	EC50	BaL	β-galactosidase	HeLa	50% human serum		<0.1 µM
CN(C)C1(c2nc(C(=O)NCc3ccc(F)cc3)c(O)c(=O)[nH]2)CC1	EC50	IIIB	p24	MT-4	10% FBS		<0.37 µM
COc1cc(CN2CCCNCCNCCCNCC2)c(OC)cc1CN1CCCNCCNCCCNCC1	EC50	RF	cytopathic effect / MTT	MT-4			0.07 µg/mL

A second listing of 4 rows from above:

compound,endpoint,strain,read by,cell line,setting,mutations,result
CCn1nc(Cc2cccc(OC)c2)cc1C1CCN(C[C@H]2CN([C@@H](C(=O)O)C(C)(C)C)C[C@@H]2c2cccc(F)c2)CC1,EC90,BaL,β-galactosidase,HeLa,50% human serum,,0.033 µM
Cc1cn([C@H]2C=C[C@@H](CO)O2)c(=O)[nH]c1=O,EC90,RF,cytopathic effect,C8166,,,1 µg/mL
Fc1cccc(F)c1C1SCc2nc3ccccc3n21,EC50,UC82-R (RT-Y181C),cytopathic effect / XTT,CEM + CEM-SS,,RT-Y181C,>69 µM
Cc1occc1C(=S)Nc1ccc(Cl)c(/C=N/OC(C)(C)C)c1,EC50,WEJO,cytopathic effect / XTT,PBMC,,,0.2 µM